Reference: patent US8546083B2, “Molecular accessibility assay” (University of Vermont, priority 2007, dated 2013)

B1: EcoNth: Escherichia coli endonuclease III, purified recombinant enzyme preparation (protein, UniProt P0AB83 1-211, looked up)
Endonuclease III: MNKAKRLEILTRLRENNPHPTTELNFSSPFELLIAVLLSAQATDVSVNKATAKLYPVANTPAAMLELGVEGVKTYIKTIGLYNSKAENIIKTCRILLEQHNGEVPEDRAALEALPGVGRKTANVVLNTAFGWPTIAVDTHIFRVCNRTQFAPGKNVEQVEEKLLKVVPAEFKVDCHHWLILHGRYTCIARKPRCGSCIIEDLCEYKEKVDI
B2: EcoFpg: Escherichia coli formamidopyrimidine-DNA glycosylase, purified recombinant enzyme preparation (protein, UniProt P05523 2-269, looked up)
Formamidopyrimidine-DNA …: PELPEVETSRRGIEPHLVGATILHAVVRNGRLRWPVSEEIYRLSDQPVLSVQRRAKYLLLELPEGWIIIHLGMSGSLRILPEELPPEKHDHVDLVMSNGKVLRYTDPRRFGAWLWTKELEGHNVLTHLGPEPLSDDFNGEYLHQKCAKKKTAIKPWLMDNKLVVGVGNIYASESLFAAGIHPDRLASSLSLAECELLARVIKAVLLRSIEQGGTTLKDFLQSDGKPGYFAQELQVYGRKGEPCRVCGTPIVATKHAQRATFYCRQCQK

Test system: 35DHU substrate
Assay: Gel-based Schiff base trapping assay (SDS-PAGE, PhosphorImager), active fraction determination
Format: biochemical
Experimental: Oligonucleotide substrates were purchased from Midland Certified Reagent Co. (Midland, Tex.) and were PAGE purified prior to use. All gel-based comparisons were performed with the following double stranded substrate: (35DHU) 5′-TET-tgtcaatagcaagnggagaagtcaatcgtgagtct-3′ (SEQ ID NO:1) where TET represents the fluorescent label 6-tetrachlorofluorescein and n=5,6-dihydrouracil (DHU). […]
For gel-based substrates, completed reactions were mixed with a dye-free SDS loading buffer (50 mM Tris-HCl (pH 6.8), 100 mM dithiothreitol, 4% SDS, 10% glycerol), heated to 90° C. for 5 minutes, separated by 12% SDS-PAGE, and visualized by PhosphorImager analysis (Bio-Rad Molecular Imager FX) (Bio-Rad Laboratories, Hercules, Calif.). For all other substrates, an equal volume of 200 nM DAPI in 10 mM Tris-HCl (pH 8.0) and 50 mM NaCl was added and incubated for 5 minutes at room temperature prior to fluorescence detection. Final concentrations of the fluorescence effecting molecules at the time of detection in these experiments were 100 nM DAPI, 50 nM substrate, and 25-800 nM enzyme. […]

Row | Molecule | β value (fraction of cleavable substrate)
1 | B1 | approximately 0.8
2 | B2 | approximately 0.8
